In the NIST ThermoML archive (doi:10.1021/je8003707):
± gives the expanded uncertainty stated by the source.

Settings: 101 kPa, Liquid; for viscosity: Capillary tube (Ostwald / Ubbelohde) method; for mass density: Pycnometric method

CCCCOP(=O)(OCCCC)OCCCC [tributyl phosphate]
viscosity (288.15 K): 4.304 ± 0.032 mPa·s
mass density (288.15 K): 981 ± 0.3 kg/m3
viscosity (293.15 K): 3.77 ± 0.028 mPa·s
mass density (293.15 K): 976.8 ± 0.3 kg/m3
viscosity (298.15 K): 3.341 ± 0.025 mPa·s
mass density (298.15 K): 972.5 ± 0.3 kg/m3
viscosity (303.15 K): 2.969 ± 0.022 mPa·s
mass density (303.15 K): 968.2 ± 0.3 kg/m3
viscosity (308.15 K): 2.651 ± 0.02 mPa·s
mass density (308.15 K): 963.9 ± 0.3 kg/m3
